A mixed list of measured activities; the numbers were collected in NIAID ChemDB.

All rows: whole-cell or culture tests; agent: HIV-1

ECn: concentration that inhibits the pathogen or its effect by n%. An empty or dashed field is not shown. Neighbouring rows are from separate reports.

compound	mutations	measure	strain	method	cells	result
Nc1nc2c(ncn2C2CC(CO)(CO)C2)c(=O)[nH]1	-	EC50	IIIB	cytopathic effect	MT-2	>200 µM
COc1cnc(-n2cnc(C)n2)c2[nH]cc(C(=O)C(=O)N3CCc4c(cnn4-c4ccncn4)C3)c12	nef	EC50	-	luciferase / single cycle	HeLa CD4	<0.5 µM
CCc1c(Cc2cc(C)cc(C)c2)n(COCCO)c(=O)[nH]c1=O	-	EC50	-	MTT	MT-4	0.02 µM
Cc1cccnc1NC(=S)NCCc1c(F)cccc1F	-	EC50	IIIB	cytopathic effect / MTT	MT-4	0.0494 µg/mL
Cc1ccc(C)n1-c1ccc(C(=O)O)c(O)c1	-	EC90	CMU02 X4 CLADE EA	luciferase / cell fusion	PBMC/5.25M7	85.2 µM
COc1cc(OC)c2c(O)c(-c3cc(-c4ccc(O)cc4O)c4cc(OC)cc(OC)c4c3O)cc(-c3ccc(O)cc3O)c2c1	-	EC50	RF	cytopathic effect	CEM + CEM-SS	>100 µM
CN1CC(C(=O)N(CCCN2CCC(Cc3ccccc3)CC2)c2ccc(Cl)c(Cl)c2)CC1=O	-	EC50	JR-FL R5	luciferase	MOLT-4-CCR5+ + MOLT-4	0.44 µM
Nc1ncnc2c1ncn2C1CCC1	-	EC50	IIIB	cytopathic effect	MT-2	>200 µM
Cc1cn([C@@H]2O[C@H](C3CO[Si](C(C)C)(C(C)C)O[Si](C(C)C)(C(C)C)O3)C3(OS(=O)(=O)C=C3N)[C@H]2O[Si](C)(C)C(C)(C)C)c(=O)[nH]c1=O	-	EC50	IIIB	syncytia	CEM	>26.7 µM
Nc1ccn([C@H]2CC[C@@H](CO)O2)c(=O)n1	-	EC50	NL4-3	luciferase / cell fusion	CEM/1G5 T	<1 µM
CSc1cc(-c2ccc(Cl)cc2)s[s+]1	-	EC50	RF	cytopathic effect / XTT	CEM + CEM-SS	39 µM
Cc1cn([C@H]2C[C@@H](CO)[C@H](O)[C@@H]2O)c(=O)[nH]c1=O	-	EC50	LAV	-	PBMC	>100 µM
CCOC(=O)c1cc(C(=O)c2ccco2)n2ccc(C(=O)NCc3ccccn3)cc12	-	EC50	NL4-3	ELISA	H9	48.7 µM
Cc1cn([C@@H]2O[C@H](C(CO[Si](C)(C)C(C)(C)C)O[Si](C)(C)C(C)(C)C)C3(OS(=O)(=O)C=C3N)[C@H]2O[Si](C)(C)C(C)(C)C)c(=O)[nH]c1=O	-	EC50	IIIB	syncytia	CEM	>136 µM
CC(C)(C)OC(=O)NCCN1CCC(NC(=O)C(=O)Nc2ccc(Cl)cc2)CC12CCCCC2	-	EC50	YTA	single cycle	TZM-bl	>30 µM
COc1cc(OC)c2c(O)c(-c3cc(-c4cccc([N+](=O)[O-])c4)c4cc(OC)cc(OC)c4c3O)cc(-c3cccc([N+](=O)[O-])c3)c2c1	-	EC50	RF	cytopathic effect	CEM + CEM-SS	>100 µM
COc1ccc(-c2n[nH]c(=S)n2N)cc1	RT-Y181C	EC50	NNRTI-resistant N119	-	MT-4	>100 µM
CCOP(=O)(N[C@@H](CC(C)C)C(=O)OC)OC[C@H]1O[C@@H](n2cc(C)c(=O)[nH]c2=O)C[C@@H]1N=[N+]=[N-]	-	EC50	RF	ELISA	C8166	30 µM
N#CCN1CCC(NC(=O)C(=O)Nc2ccc(Cl)cc2)CC12CCCCC2	-	EC50	YTA	single cycle	TZM-bl	5.2 µM
COC(=O)[C@H](Cc1ccccc1)NP(=O)(N[C@@H](Cc1ccccc1)C(=O)OC)OC[C@H]1O[C@@H](n2cc(C)c(=O)[nH]c2=O)C[C@@H]1N=[N+]=[N-]	-	EC50	RF	ELISA	C8166	0.07 µM
C=CCOCn1c(Cc2ccccc2)c(CO)c(=O)[nH]c1=O	EFV:K103R+V179D+P225H	EC50	IIIB	MTT	MT-4	>100 µM
O=C(Nc1ccc(Cl)cc1)C(=O)NC1CCN(Cc2ccccc2)C2(CCCCC2)C1	-	EC50	YTA	single cycle	TZM-bl	>30 µM
CCOC(=O)c1cc(C(=O)c2ccccc2)n2ccc(C(=O)NCc3ccccn3)cc12	-	EC50	NL4-3	ELISA	H9	47 µM
OC[C@H]1C[C@@H](n2cnc3c(F)ncnc32)CO1	-	EC50	IIIB	cytopathic effect	ATH8	>100 µM
Cc1ccc(-c2nnc3sc(CN4C(=O)c5ccccc5C4=O)nn23)cc1	-	EC50	IIIB	-	MT-4	>100 µM
C=C(C)[C@]1(O)C[C@@H](C)[C@@]2(O)[C@H]([C@H]1OC(=O)/C=C/C=C/CCCCC)[C@@H]1O[C@]1(CO)[C@@H](O)[C@]1(O)C(=O)C(C)=C[C@H]12	-	EC50	A17	p24 / ELISA / antigen	C8166	0.02515 µM
NOCc1ccccc1	-	EC50	IIIB	cytopathic effect / MTT	MT-4	>82.3 µg/mL
CCc1c(CC2CCCCC2)nc(SCC(=O)c2ccc(OC(=O)c3ccccc3)cc2)[nH]c1=O	-	EC50	IIIB	MTT / syncytia	C8166	0.0089 µM
CCc1c(Cc2cc(C)cc(C)c2)n(COC2C=CCCC2)c(=O)[nH]c1=O	-	EC50	IIIB	cytopathic effect / MTT	MT-4	0.04 µM
Nc1nc2c(ncn2[C@H]2CC[C@@H](CO)O2)c(=O)[nH]1	-	EC50	IIIB	cytopathic effect	ATH8	7.5 µM
Cc1ccc(C=C(C(=O)O)C(=O)O)o1	-	EC50	RF	cytopathic effect / XTT	CEM + CEM-SS	141 µM
Nc1ncc2ncn([C@H]3CO[C@@H](CO)C3)c2n1	-	EC50	IIIB	cytopathic effect	ATH8	>100 µM
CCc1c(Cc2cc(C)cc(C)c2)n(COCCF)c(=O)[nH]c1=O	Y181C	EC50	Clinical isolates	MTT	MT-4	0.5 µM
COc1ccc(-c2nnc(SC(c3ccccc3)c3ccccc3)n2N)cc1	-	EC50	IIIB	-	MT-4	>100 µM
COc1cc(C)cc2c(-c3ccccc3)cc(-c3cc(-c4ccccc4)c4cc(C)cc(OC)c4c3O)c(O)c12	-	EC50	RF	cytopathic effect	CEM + CEM-SS	>100 µM
CCc1c(Cc2cc(C)cc(C)c2)n(COC/C(C)=C/c2ccccc2)c(=O)[nH]c1=O	RT-Y181C	EC50	NNRTI-resistant (RT Y181C) N119	cytopathic effect / MTT	MT-4	2 µM
CCOC(=O)c1cc(C(=O)NCc2ccccn2)n2ccc(C(=O)c3ccco3)cc12	-	EC50	NL4-3	ELISA	H9	42.1 µM
NC(N)=NCCN1CCC(NC(=O)C(=O)Nc2ccc(Cl)cc2)CC12CCCCC2	-	EC50	YTA	single cycle	TZM-bl	6.8 µM
NOCc1cc(Cl)ccc1Cl	-	EC50	IIIB	cytopathic effect / MTT	MT-4	7.96 µg/mL
Fc1cccc(F)c1CCNC(=S)Nc1ncc(Br)cc1Cl	-	EC50	IIIB	cytopathic effect / MTT	MT-4	2.26 µg/mL
NOCc1ccccc1F	-	EC50	IIIB	cytopathic effect / MTT	MT-4	8.15 µg/mL
COc1cccc2c(-c3cccc([N+](=O)[O-])c3)cc(-c3cc(-c4cccc([N+](=O)[O-])c4)c4cccc(OC)c4c3O)c(O)c12	-	EC50	RF	cytopathic effect	CEM + CEM-SS	>100 µM
CCOC(=O)c1cc(C(=O)c2ccc(O)cc2)n2ccc(C(=O)NCc3ccccn3)cc12	-	EC50	NL4-3	ELISA	H9	35.2 µM
Cc1cc(NS(=O)(=O)c2ccc(Nc3c4ccccc4nc4c(C(=O)Nc5ccc(S(=O)(=O)N=C(N)N)cc5)cccc34)cc2)no1	-	EC50	RF	cytopathic effect / XTT	CEM	28.5 µM
C=C(C)COCn1c(Cc2ccccc2)c(CF)c(=O)[nH]c1=O	Y181C	EC50	Clinical isolates	MTT	MT-4	>20 µM
Nc1nc(Cl)c2ncn([C@H]3CO[C@@H](CO)C3)c2n1	-	EC50	IIIB	cytopathic effect	ATH8	>100 µM
CCOC(=O)c1c(N)ssc1=S	-	EC50	RF	cytopathic effect / XTT	CEM + CEM-SS	72 µM
N#CCN(CC#N)CCN1CCC(NC(=O)C(=O)Nc2ccc(Cl)cc2)CC12CCCCC2	-	EC50	YTA	single cycle	TZM-bl	5.2 µM
COc1ccc(-c2nnc(S[C@@H]3O[C@H](CO)[C@@H](O)[C@H](O)[C@H]3O)n2N)cc1	-	EC50	IIIB	-	MT-4	>100 µM
COC(=O)[C@H](C)NP(=O)(OC[C@H]1O[C@@H](n2cc(C)c(=O)[nH]c2=O)C[C@@H]1N=[N+]=[N-])OCC(Cl)(Cl)Cl	-	EC50	RF	ELISA	C8166	0.09 µM
COc1cc(C)cc2c(-c3cccs3)cc(-c3cc(-c4cccs4)c4cc(C)cc(OC)c4c3O)c(O)c12	-	EC50	RF	cytopathic effect	CEM + CEM-SS	>100 µM
Cc1ccc(-c2n[nH]c(=S)n2N)cc1	-	EC50	IIIB	-	MT-4	>100 µM
Cc1ccnc(NC(=S)NCCc2c(F)cccc2F)c1	-	EC50	IIIB	cytopathic effect / MTT	MT-4	0.026 µg/mL
C[C@@H]1CCO[C@H]2Cn3cc(C(=O)NCc4ccc(F)cc4F)c(=O)c(O)c3C(=O)N12	Y143R	EC50	NL4-3	RT activity	CBMC	0.0013 µM
CCOC(=O)c1cc(C(=O)c2ccc([N+](=O)[O-])cc2)n2ccc(C(=O)NCc3ccccn3)cc12	-	EC50	NL4-3	ELISA	H9	20.5 µM
CCCc1c(Cc2cc(C)cc(C)c2)n(COCC2CC=CCC2)c(=O)[nH]c1=O	-	EC50	IIIB	cytopathic effect / MTT	MT-4	0.08 µM
COc1cc(C)cc2c(-c3ccc(O)cc3O)cc(-c3cc(-c4ccc(O)cc4O)c4cc(C)cc(OC)c4c3O)c(O)c12	-	EC50	RF	cytopathic effect	CEM + CEM-SS	>100 µM
COc1cc(C[C@H]2COC(=O)[C@@H]2Cc2ccc(O[C@@H]3O[C@H](CO)[C@@H](O)[C@H](O)[C@H]3O)c(OC)c2)ccc1O	-	EC50	IIIB	syncytia	C8166	16.36 µg/mL
Cc1cc(C#CCOCCOCCOCC#Cc2cn(C3C=CC(COP(=O)(O)O)O3)c(=O)[nH]c2=O)cc(C)c1Oc1ccnc(Nc2ccc(C#N)cc2)n1	-	EC50	IIIB	MTT / absorbance	MT-2	~0.025 nM
NOCc1c(F)cccc1Cl	-	EC50	IIIB	cytopathic effect / MTT	MT-4	1.58 µg/mL
O=C(Nc1ccccc1S)c1ccccc1	-	EC50	RF	cytopathic effect / XTT	CEM + CEM-SS	3 µM
CCOCn1c(Cc2ccccc2)c(C(C)C)c(=O)[nH]c1=O	RT-Y181C	EC50	NNRTI-resistant (RT Y181C) N119	cytopathic effect / MTT	MT-4	44 µM
CCOC(=O)c1sc(C(=O)O)cc1-c1cccs1	-	EC50	RF	cytopathic effect / XTT	CEM + CEM-SS	132 µM
Cc1cc(Br)cnc1NC(=S)NCCc1c(F)cccc1F	-	EC50	IIIB	cytopathic effect / MTT	MT-4	0.0821 µg/mL
C1CNC(NC2CCC(NC3=NCCN3)CC2)=N1	-	EC50	NL4-3	entry / fluorescence	HEK 293	40.95 µM
CCc1c(Cc2cc(C)cc(C)c2)n(COCC2CC=CCC2)c(=O)[nH]c1=O	RT-K103N Y181C	EC50	NNRTI-resistant (RT K103N Y181C) A17	cytopathic effect / MTT	MT-4	>100 µM
COC(=O)CNP(=O)(NCC(=O)OC)OC[C@H]1O[C@@H](n2cc(C)c(=O)[nH]c2=O)C[C@@H]1N=[N+]=[N-]	-	EC50	RF	ELISA	C8166	0.5 µM
C1CCC(NC2=NCCN2)CCCCC(NC2=NCCN2)C1	-	EC50	NL4-3	entry / fluorescence	HEK 293	0.47 µM

For reference, 5 entries again:

{"compound": "CC(C)(C)OC(=O)NCCN1CCC(NC(=O)C(=O)Nc2ccc(Cl)cc2)CC12CCCCC2", "measure": "EC50", "strain": "YTA", "method": "single cycle", "cells": "TZM-bl", "result": ">30 µM"}
{"compound": "COc1ccc(-c2nnc(S[C@@H]3O[C@H](CO)[C@@H](O)[C@H](O)[C@H]3O)n2N)cc1", "measure": "EC50", "strain": "IIIB", "cells": "MT-4", "result": ">100 µM"}
{"compound": "NOCc1ccccc1F", "measure": "EC50", "strain": "IIIB", "method": "cytopathic effect / MTT", "cells": "MT-4", "result": "8.15 µg/mL"}
{"compound": "CCc1c(CC2CCCCC2)nc(SCC(=O)c2ccc(OC(=O)c3ccccc3)cc2)[nH]c1=O", "measure": "EC50", "strain": "IIIB", "method": "MTT / syncytia", "cells": "C8166", "result": "0.0089 µM"}
{"compound": "N#CCN(CC#N)CCN1CCC(NC(=O)C(=O)Nc2ccc(Cl)cc2)CC12CCCCC2", "measure": "EC50", "strain": "YTA", "method": "single cycle", "cells": "TZM-bl", "result": "5.2 µM"}